Values quoted from earlier work as cited in PMC10301793 (Marine Drugs, 2023).
Structures were worked out from names or drawings and are uncertain.

Sequences of proteins named here, by UniProt entry; tags and fusion partners are left off. Residues count along the entry.
UniProt Q05941, 23-502 limits assumed: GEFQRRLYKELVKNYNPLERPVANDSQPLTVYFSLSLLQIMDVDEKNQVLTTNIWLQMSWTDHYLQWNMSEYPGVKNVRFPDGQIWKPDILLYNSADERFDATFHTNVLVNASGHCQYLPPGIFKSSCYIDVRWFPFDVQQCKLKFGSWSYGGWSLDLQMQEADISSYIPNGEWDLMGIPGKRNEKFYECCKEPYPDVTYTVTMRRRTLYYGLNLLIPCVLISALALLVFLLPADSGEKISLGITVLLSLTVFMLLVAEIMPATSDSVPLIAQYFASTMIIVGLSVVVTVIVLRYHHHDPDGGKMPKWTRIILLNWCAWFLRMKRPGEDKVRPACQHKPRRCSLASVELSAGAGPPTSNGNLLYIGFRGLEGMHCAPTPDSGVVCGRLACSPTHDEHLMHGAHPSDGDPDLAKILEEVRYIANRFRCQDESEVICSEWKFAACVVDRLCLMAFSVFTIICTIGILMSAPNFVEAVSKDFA
UniProt P12389, 28-511 limits assumed: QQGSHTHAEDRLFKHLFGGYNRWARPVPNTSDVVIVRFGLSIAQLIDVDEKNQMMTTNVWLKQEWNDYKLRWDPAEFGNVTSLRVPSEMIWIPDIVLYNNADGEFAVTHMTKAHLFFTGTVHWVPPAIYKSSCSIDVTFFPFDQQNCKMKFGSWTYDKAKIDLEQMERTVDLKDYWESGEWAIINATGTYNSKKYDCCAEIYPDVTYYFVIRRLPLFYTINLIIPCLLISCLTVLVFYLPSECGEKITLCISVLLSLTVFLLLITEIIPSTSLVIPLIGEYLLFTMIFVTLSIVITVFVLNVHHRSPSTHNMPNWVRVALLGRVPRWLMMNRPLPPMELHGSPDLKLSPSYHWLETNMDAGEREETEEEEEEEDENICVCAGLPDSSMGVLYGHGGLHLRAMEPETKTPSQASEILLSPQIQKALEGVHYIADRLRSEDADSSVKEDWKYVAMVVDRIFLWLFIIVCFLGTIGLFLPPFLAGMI
UniProt P12390, 25-500 limits assumed: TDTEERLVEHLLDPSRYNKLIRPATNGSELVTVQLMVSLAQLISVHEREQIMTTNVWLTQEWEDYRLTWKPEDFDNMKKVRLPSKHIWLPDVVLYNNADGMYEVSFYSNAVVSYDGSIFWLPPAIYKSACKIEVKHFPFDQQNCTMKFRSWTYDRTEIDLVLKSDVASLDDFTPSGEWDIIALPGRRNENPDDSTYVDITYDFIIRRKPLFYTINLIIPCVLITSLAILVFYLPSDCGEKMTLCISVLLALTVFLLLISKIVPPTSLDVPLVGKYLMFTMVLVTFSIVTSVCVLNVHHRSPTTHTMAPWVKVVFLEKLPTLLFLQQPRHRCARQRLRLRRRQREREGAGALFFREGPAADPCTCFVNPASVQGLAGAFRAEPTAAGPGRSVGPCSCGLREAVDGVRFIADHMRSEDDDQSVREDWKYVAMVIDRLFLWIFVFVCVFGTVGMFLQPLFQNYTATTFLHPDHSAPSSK
UniProt P12390, whole entry, looked up: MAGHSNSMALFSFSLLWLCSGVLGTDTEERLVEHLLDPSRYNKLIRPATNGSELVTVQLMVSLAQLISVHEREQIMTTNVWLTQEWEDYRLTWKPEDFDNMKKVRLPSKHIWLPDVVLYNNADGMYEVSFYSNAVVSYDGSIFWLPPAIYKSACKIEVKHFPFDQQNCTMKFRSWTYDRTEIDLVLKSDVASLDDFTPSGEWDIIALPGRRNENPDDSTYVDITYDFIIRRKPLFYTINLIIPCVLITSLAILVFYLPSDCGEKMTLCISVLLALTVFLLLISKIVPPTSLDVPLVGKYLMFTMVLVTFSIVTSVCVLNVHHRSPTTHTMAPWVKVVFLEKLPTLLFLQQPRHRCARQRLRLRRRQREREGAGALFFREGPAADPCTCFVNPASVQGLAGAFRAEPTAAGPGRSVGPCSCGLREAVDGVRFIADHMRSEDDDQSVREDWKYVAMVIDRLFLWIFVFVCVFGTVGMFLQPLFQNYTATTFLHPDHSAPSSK
UniProt P04757, 26-499 limits assumed: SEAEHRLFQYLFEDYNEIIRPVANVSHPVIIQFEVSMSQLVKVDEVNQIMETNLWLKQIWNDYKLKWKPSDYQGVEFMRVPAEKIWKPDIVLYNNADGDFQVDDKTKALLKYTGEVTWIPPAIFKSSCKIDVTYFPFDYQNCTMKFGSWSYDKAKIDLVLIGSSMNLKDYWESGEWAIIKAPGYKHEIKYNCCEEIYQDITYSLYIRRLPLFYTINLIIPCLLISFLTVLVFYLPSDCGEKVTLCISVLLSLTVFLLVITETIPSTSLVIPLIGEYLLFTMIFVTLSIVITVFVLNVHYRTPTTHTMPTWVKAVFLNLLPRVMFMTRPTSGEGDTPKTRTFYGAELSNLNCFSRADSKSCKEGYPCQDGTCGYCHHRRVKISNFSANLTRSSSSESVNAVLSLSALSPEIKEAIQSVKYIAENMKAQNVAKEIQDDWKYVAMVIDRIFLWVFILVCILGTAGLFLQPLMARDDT
UniProt P04757, whole entry, looked up: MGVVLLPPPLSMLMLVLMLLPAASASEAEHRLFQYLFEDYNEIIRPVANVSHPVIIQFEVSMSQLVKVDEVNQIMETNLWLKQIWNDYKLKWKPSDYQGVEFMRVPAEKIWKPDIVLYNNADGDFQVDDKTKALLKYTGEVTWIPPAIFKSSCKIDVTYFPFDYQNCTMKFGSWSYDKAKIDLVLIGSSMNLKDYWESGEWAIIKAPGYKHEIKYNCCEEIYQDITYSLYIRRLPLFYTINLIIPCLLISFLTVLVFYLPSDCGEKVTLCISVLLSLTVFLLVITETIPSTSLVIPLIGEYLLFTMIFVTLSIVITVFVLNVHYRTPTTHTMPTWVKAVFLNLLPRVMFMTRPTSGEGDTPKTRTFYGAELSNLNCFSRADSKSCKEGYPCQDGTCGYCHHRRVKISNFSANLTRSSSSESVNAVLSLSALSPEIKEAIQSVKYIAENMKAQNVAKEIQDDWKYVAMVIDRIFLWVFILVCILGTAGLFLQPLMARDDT
UniProt P12392, 21-495 limits assumed: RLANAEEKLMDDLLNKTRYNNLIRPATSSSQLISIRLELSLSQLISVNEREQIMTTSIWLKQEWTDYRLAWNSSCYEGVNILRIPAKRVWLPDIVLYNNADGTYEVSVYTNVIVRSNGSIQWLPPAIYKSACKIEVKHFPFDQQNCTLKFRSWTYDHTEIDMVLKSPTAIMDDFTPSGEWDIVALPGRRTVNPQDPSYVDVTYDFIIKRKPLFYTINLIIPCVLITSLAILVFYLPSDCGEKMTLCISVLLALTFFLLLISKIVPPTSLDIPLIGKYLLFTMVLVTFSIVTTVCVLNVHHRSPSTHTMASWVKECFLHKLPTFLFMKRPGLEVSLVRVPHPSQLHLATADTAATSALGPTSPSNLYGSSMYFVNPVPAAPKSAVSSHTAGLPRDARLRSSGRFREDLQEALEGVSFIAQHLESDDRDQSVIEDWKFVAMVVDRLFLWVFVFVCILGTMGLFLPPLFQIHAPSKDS
UniProt P12392, whole entry, looked up: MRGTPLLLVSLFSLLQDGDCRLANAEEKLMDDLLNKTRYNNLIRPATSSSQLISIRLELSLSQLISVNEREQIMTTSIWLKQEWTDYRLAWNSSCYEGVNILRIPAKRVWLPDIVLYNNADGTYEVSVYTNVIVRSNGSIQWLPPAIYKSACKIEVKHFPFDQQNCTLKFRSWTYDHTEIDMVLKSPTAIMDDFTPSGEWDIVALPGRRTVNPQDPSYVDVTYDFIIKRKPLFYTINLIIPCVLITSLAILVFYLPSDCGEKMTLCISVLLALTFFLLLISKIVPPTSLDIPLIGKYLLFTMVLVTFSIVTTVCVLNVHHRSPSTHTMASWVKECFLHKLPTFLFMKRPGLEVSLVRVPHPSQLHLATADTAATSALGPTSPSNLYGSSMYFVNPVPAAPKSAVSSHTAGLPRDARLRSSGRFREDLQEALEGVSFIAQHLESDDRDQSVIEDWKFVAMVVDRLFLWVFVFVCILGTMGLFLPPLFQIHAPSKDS
UniProt P09483, 31-630 limits assumed: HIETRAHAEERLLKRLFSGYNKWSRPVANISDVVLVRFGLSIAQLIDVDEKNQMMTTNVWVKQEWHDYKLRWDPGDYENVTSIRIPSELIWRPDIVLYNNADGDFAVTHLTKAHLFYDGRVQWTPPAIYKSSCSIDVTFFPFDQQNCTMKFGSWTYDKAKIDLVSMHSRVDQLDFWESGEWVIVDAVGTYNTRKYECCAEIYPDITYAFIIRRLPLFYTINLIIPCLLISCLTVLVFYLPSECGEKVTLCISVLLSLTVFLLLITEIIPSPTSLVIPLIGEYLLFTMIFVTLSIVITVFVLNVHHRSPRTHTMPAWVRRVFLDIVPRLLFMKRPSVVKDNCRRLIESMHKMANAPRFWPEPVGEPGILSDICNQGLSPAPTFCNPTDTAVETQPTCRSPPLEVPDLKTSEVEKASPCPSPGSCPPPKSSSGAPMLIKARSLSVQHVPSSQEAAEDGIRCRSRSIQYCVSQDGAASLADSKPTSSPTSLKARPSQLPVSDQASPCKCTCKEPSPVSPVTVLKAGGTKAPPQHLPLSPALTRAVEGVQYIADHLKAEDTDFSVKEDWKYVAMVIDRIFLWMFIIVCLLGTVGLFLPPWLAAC
UniProt P12391, whole entry, looked up: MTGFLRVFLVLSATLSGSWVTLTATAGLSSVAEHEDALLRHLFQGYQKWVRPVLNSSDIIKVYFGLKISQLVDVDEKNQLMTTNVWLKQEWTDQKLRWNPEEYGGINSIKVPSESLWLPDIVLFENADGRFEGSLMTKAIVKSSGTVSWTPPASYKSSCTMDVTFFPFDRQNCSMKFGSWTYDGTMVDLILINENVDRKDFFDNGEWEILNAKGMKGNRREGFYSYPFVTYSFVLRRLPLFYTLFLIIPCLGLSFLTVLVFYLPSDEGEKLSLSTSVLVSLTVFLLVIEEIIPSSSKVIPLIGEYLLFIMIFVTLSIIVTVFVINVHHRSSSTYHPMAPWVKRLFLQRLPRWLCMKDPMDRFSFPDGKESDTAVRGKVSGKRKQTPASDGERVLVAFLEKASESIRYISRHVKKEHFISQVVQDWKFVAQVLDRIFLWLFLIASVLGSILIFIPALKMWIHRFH
UniProt P43143, whole entry M241L/F253L/V303I/V320I/I327V/A333T/K339T, looked up: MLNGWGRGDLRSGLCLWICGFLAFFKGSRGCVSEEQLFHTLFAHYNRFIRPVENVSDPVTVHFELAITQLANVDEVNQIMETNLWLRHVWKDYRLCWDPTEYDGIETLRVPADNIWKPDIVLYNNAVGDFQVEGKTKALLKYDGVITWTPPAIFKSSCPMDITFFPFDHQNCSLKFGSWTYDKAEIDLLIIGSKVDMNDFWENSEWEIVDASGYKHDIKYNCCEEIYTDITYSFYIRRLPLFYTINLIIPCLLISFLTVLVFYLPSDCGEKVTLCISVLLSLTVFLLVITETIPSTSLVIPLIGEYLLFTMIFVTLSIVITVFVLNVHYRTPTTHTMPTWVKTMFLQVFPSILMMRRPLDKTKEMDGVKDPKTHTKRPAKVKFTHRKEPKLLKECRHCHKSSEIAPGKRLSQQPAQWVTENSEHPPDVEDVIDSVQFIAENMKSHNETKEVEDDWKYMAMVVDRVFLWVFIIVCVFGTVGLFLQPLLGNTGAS

Columns and labels:
α7 nAChR = α7 nAChR (Rattus norvegicus, UniProt Q05941); conditions: ref [13]; cited from earlier work
α2β2 nAChR = α2β2 nAChR (Rattus norvegicus, UniProt P12389+P12390); conditions: ref [13]; cited from earlier work
α3β2 nAChR = α3β2 nAChR (Rattus norvegicus, UniProt P04757+P12390); conditions: ref [13]; cited from earlier work
α3β4 nAChR = α3β4 nAChR (Rattus norvegicus, UniProt P04757+P12392); conditions: ref [13]; cited from earlier work
α4β2 nAChR = α4β2 nAChR (Rattus norvegicus, UniProt P09483+P12390); conditions: ref [13]; cited from earlier work
α4β4 nAChR = α4β4 nAChR (Rattus norvegicus, UniProt P09483+P12392); conditions: ref [13]; cited from earlier work
α6/α3β2β3 nAChR = α6/α3β2β3 nAChR (Rattus norvegicus, UniProt P04757+P12390+P12391+P43143); conditions: ref [13]; cited from earlier work
α6/α3β4 nAChR = α6/α3β4 nAChR (Rattus norvegicus, UniProt P04757+P12392+P43143); conditions: ref [13]; cited from earlier work
other subtypes = conditions: at concentrations up to 10 μM; ref [14]; cited from earlier work

Compound	Hill Slope (α7 nAChR)	Hill Slope (α2β2 nAChR)	Hill Slope (α3β2 nAChR)	Hill Slope (α3β4 nAChR)	IC50 (α4β2 nAChR)	Hill Slope (α4β4 nAChR)	Hill Slope (α6/α3β2β3 nAChR)	Hill Slope (α6/α3β4 nAChR)	inhibition of other subtypes (other subtypes)
CC(C)C[C@@H]1NC(=O)[C@H](C(C)C)NC(=O)[C@H](C)NC(=O)[C@@H]2CSSC[C@H](NC(=O)CN)C(=O)N[C@@H](CSSC[C@@H](C(N)=O)NC(=O)[C@H](Cc3ccc(O)cc3)NC1=O)C(=O)N[C@@H](CO)C(=O)N[C@@H]([C@@H](C)O)C(=O)N1CCC[C@H]1C(=O)N1CCC[C@H]1C(=O)N2	−1.21	−0.850	−1.48	−1.52	> 10 nM	−1.15	−0.963	−1.40	
CC(C)[C@@H]1NC(=O)[C@@H]2CCCN2C(=O)[C@H](CC(N)=O)NC(=O)[C@H](C)NC(=O)[C@@H]2CSSC[C@@H](C(=O)N[C@@H](CCC(N)=O)C(=O)O)NC(=O)[C@H](Cc3c[nH]cn3)NC(=O)[C@H](CCCCN)NC(=O)CNC(=O)[C@H](CC(N)=O)NC(=O)[C@H](CSSC[C@H](NC(=O)[C@@H](N)CC(=O)O)C(=O)N2)NC1=O									hardly inhibited other subtypes
